Anti-infective test results gathered from many reports (values: NIAID ChemDB through PubChem).

All rows: tests in culture; agent: Herpes simplex virus 1; measure: EC50

Rows are shuffled and stem from different studies.

compound	conditions	strain or isolate	cells	result
OC[C@H]1O[C@@H](n2c(Cl)nc3cc(Cl)c(Cl)cc32)[C@@H](F)[C@@H]1O				50 µM
O=c1ccn([C@@H]2O[C@@H](CO)C[C@H]2F)c(=O)[nH]1			VERO	>100 µM
Nc1nc(N)c2ncn([C@@H]3S[C@H](CO)[C@H](O)[C@@H]3F)c2n1				0.0057 µg/mL
O=c1c(O)c(-c2ccc(O)cc2)oc2cc(O)cc(O)c12		TK-	VERO	2 µg/mL
Cc1cn([C@@H]2C[C@@H](O)[C@H](CO)O2)c(=O)[nH]c1=O			HFF	>200 µM
CCCCCCCCCCCCCCCCCCSC[C@H](O)COP(=O)(O)C(=O)O			MRC-5	5 µM
Nc1ncnc2c1ncn2CCOCP(=O)(O)O	inside macrophages			0.0128–0.064 µM
C[C@H](N)C(=O)OCP(=O)(OC[C@H]1O[C@@H](n2cc(/C=C/Br)c(=O)[nH]c2=O)C[C@@H]1O)Oc1ccccc1		KOS	HEL	0.3 µM
Nc1nc2c(ncn2[C@H]2O[C@@H](CO)C[C@@H]2F)c(=O)[nH]1			VERO	>100 µM
C[C@H](N)C(=O)OCP(=O)(OC[C@H]1O[C@@H](n2cnc3c(Cl)nccc32)C[C@@H]1O)Oc1ccccc1		KOS	HEL	>100 µM
COc1cc(C2c3c(cc4c(c3OC)OCO4)C[C@H]3COC(=O)[C@H]23)cc(OC)c1OC		ITOH	MRC-5	0.056 µg/mL
NC(=O)c1cn([C@H]2C[C@H](O)[C@@H](CO)O2)c2ncnc(N)c12		S-148	BSC-1	>34 µM
CNc1ncnc2c1ncn2[C@@H]1O[C@@H](CO)C[C@H]1F			VERO	>100 µM
CCCCCCCCSC[C@H](O)COP(=O)(O)C(=O)O			MRC-5	85 µM
Nc1ncnc2c1ncn2C[C@H]1COP(=O)(O)CO1			Primary rabbit kidney cells	2 µg/mL
NC(=O)c1cn([C@@H]2O[C@H](CO)[C@@H](O)[C@@H]2O)c2ncnc(N)c12		S-148	BSC-1	5.1 µM
CCCCCCCCCCCCCCCCSC[C@H](O)COP(=O)(O)C(=O)O			MRC-5	4.3 µM
O=c1[nH]cnc2c1ncn2C[C@@H](CO)OCP(=O)(O)O		TK-	Primary rabbit kidney cells	>400 µg/mL
COC(=O)CN(CC(=O)OC)P(=O)(OC[C@H]1O[C@@H](n2cnc3c(N)ccnc32)C[C@@H]1O)Oc1ccccc1		KOS	HEL	>100 µM
COc1cc(C[C@H]2C(=O)OC[C@@H]2Cc2cc(OC)c3c(c2)OCO3)cc(OC)c1OC		KOS	MRC-5	>50 µg/mL
Nc1ncnc2c1ncn2[C@@H]1C[C@@H](O)[C@H](CO)O1			HFF	>100 µM
Nc1ncnc2c1ncn2C[C@@H](CO)OCP(=O)(O)O			Primary rabbit kidney cells	2 µg/mL
CC(C)(C)C(=O)OCOC(=O)CN(CC(=O)OCOC(=O)C(C)(C)C)P(=O)(OC[C@H]1O[C@@H](n2cc(/C=C/Br)c(=O)[nH]c2=O)C[C@@H]1O)Oc1ccccc1		KOS	HEL	1.1 µM
Nc1ccn(C[C@@H](CO)OCP(=O)(O)O)c(=O)n1			Primary rabbit kidney cells	4 µg/mL
O=c1ccn([C@@H]2O[C@H](CO)C[C@@H]2F)c(=O)[nH]1			VERO	>100 µM
O=c1c(O)c(-c2ccc(O)c(O)c2)oc2cc(O)cc(O)c12		TK-	VERO	<60 µg/mL
Cc1cn([C@H]2O[C@@H](CO)C[C@H]2F)c(=O)[nH]c1=O			VERO	>100 µM
O=c1[nH]cnc2c1ncn2CCOCP(=O)(O)O			Primary rabbit kidney cells	>400 µg/mL
Nc1nc2c(ncn2COC(CO)CO)c(=O)[nH]1		KOS	HEL	0.02 µM
COc1cc([C@@H]2c3cc(O)c(O)cc3C[C@H]3COC(=O)[C@@H]32)cc(OC)c1OC		A4-3	MRC-5	0.061 µg/mL
O=c1[nH]c(=O)n([C@@H]2O[C@@H](CO)C[C@H]2F)cc1Cl			VERO	>40 µM
Nc1nc(N)c2ncn(CC(CO)OCP(=O)(O)O)c2n1		TK-	Primary rabbit kidney cells	10 µg/mL
CCCCCCCCCCCCCCCCCCOC[C@@H](O)COP(=O)(O)C(=O)O			MRC-5	0.63 µM
CNc1ncnc2c1ncn2[C@H]1O[C@@H](CO)C[C@H]1F			VERO	>100 µM
Nc1nc2c(ncn2COCCO)c(=O)[nH]1		KOS	HEL	0.2 µM
O=c1[nH]c(=O)n([C@@H]2O[C@@H](CO)C[C@H]2F)cc1Br			VERO	>100 µM
CC(C)(C)C(=O)OCOC(=O)CN(CC(=O)OCOC(=O)C(C)(C)C)P(=O)(OC[C@H]1O[C@@H](n2cnc3c(N)ccnc32)C[C@@H]1O)Oc1ccccc1		KOS	HEL	>20 µM

For reference, 3 entries again:

{"compound": "Nc1nc2c(ncn2COCCO)c(=O)[nH]1", "strain or isolate": "KOS", "cells": "HEL", "result": "0.2 µM"}
{"compound": "Nc1ncnc2c1ncn2C[C@H]1COP(=O)(O)CO1", "cells": "Primary rabbit kidney cells", "result": "2 µg/mL"}
{"compound": "O=c1ccn([C@@H]2O[C@H](CO)C[C@@H]2F)c(=O)[nH]1", "cells": "VERO", "result": ">100 µM"}

a–b is a range or a potency band. ECn: concentration that inhibits the pathogen or its effect by n%. An empty or dashed field is not shown.